{"source": "paper PMC7728077", "about": "“Double-Headed Cationic Lipopeptides: An Emerging Class of Antimicrobials” (International Journal of Molecular Sciences, 2020)", "system": "POPG large unilamellar vesicles (LUVs)", "assay": "Isothermal titration calorimetry, binding to POPG", "conditions": "ITC, 298.15 K", "procedure": "Isothermal titration calorimetry (ITC) experiments were carried out at 298.15 K using an AutoITC isothermal titration calorimeter (MicroCal Inc., GE Healthcare, Northampton, MA, USA) equipped with a 1.4491 mL sample cell and a reference cell. A typical ITC experiment involved a series of consecutive injections of 10.02 µL aliquots of the titrant (2 µL for the first injection only) into the reaction cell, at an interval of 4 min. The stirrer speed was constantly kept at 300 rpm to provide thorough mixing inside the reaction cell. Three types of ITC experiments were performed. These included lipopeptides binding to POPG, POPC, and LPS. The experiments were carried out by titration of 1.3 mM POPG or POPC LUVs into 0.05 or 0.1 mM lipopeptide solutions and the titration of 0.5 or 0.75 mM lipopeptide solution into 200 or 400 µg/mL LPS solution. The molecular mass of LPS was assumed to be 20,000 Da. To assess the heat of dilution, control experiments were performed by titration of an appropriate titrant into PBS. Final results were evaluated with an ITC module for ORIGIN 7 software, provided by MicroCal, Inc. (Northampton, MA, USA). The binding constant, stoichiometry, and enthalpy of interactions were directly determined from ITC experiment by fitting one of the built-in curve fitting models to the experimental data points. Changes in entropy (∆S°) and the Gibbs free energy (∆G°) were calculated from the following equation: ∆G^°=−RTln(55.5Ka)=∆H^°−T∆S^° where 55.5 is the molar concentration of water, R is the gas constant (1.986 cal·mol^−1·K^−1), and T is the absolute temperature.", "key": {"[1]": {"conditions": "calculated from ΔG° = −RTln(55.5Ka) = ΔH° − TΔS°, single transition or first line"}, "[2]": {"conditions": "calculated, second line (second binding event)"}, "[3]": {"conditions": "single transition or first line of two binding events"}, "[4]": {"conditions": "calculated from −RTln(55.5Ka), single transition or first line"}}, "note": "Square brackets hold non-standard residues; d marks the D form. Peptide text beside a SMILES is read from it. * marks the point of attachment. Palmitoyl = CCCCCCCCCCCCCCCC(=O)*; Dab = NCC[C@H](N)C(=O)O"}
{"smiles": "CCCCCCCCCCCCCCCC(=O)NCC[C@H](NC(=O)[C@@H](N)CCCCN)C(=O)N[C@@H](CCCCN)C(N)=O", "note": "[K(DabC16)K-NH2] (H-Lys-[Dab](Palmitoyl)-Lys-NH2)", "values": [{"measurement": "TΔS°, POPG", "setting": "[1]", "result": "39.4 ± 0.711", "unit": "kJ/mol"}, {"measurement": "TΔS°, POPG", "setting": "[2]", "result": "44.69 ± 1.51", "unit": "kJ/mol"}, {"measurement": "ΔG°, POPG", "setting": "[2]", "result": "-47.53 ± 1.51", "unit": "kJ/mol"}, {"measurement": "ΔH°, POPG", "setting": "second line (second binding event)", "result": "-2.85 ± 0.17", "unit": "kJ/mol"}, {"measurement": "n (stoichiometry), POPG", "setting": "second line printed for the peptide (second binding event)", "result": "1.57 ± 0.07"}, {"measurement": "ΔH°, POPG", "setting": "[3]", "result": "-5.1 ± 0.25", "unit": "kJ/mol"}]}
{"smiles": "CCCCCCCCCCCCCCCC(=O)NCCCC[C@H](NC(=O)[C@@H](N)CCCCN)C(=O)N[C@@H](CCCCN)C(N)=O", "note": "[K(KC16)K-NH2]", "values": [{"measurement": "TΔS°, POPG", "setting": "[1]", "result": "37 ± 0.837", "unit": "kJ/mol"}, {"measurement": "ΔG°, POPG", "setting": "[4]", "result": "-42.26 ± 0.628", "unit": "kJ/mol"}, {"measurement": "ΔH°, POPG", "setting": "[3]", "result": "-5.19 ± 0.17", "unit": "kJ/mol"}]}
{"smiles": "CCCCCCCCCCCCCCCC(=O)NCCC[C@H](NC(=O)[C@@H](N)CCCCN)C(=O)N[C@@H](CCCCN)C(N)=O", "note": "[K(OC16)K-NH2]", "values": [{"measurement": "TΔS°, POPG", "setting": "[1]", "result": "37.3 ± 0.669", "unit": "kJ/mol"}, {"measurement": "ΔG°, POPG", "setting": "[4]", "result": "-42.97 ± 0.669", "unit": "kJ/mol"}, {"measurement": "ΔH°, POPG", "setting": "[3]", "result": "-5.65 ± 0.13", "unit": "kJ/mol"}]}
